Results of unrelated studies side by side (data: NIAID ChemDB).

Shared fields: whole-cell or culture tests; agent: Candida albicans

Lines come from different laboratories, so protocols vary. Blank or dashed fields: not listed here. A number after MIC or MFC names an inhibition level or a share of isolates.

structure | setting | strain | method | endpoint | result
CN(C)CCSC(=S)NCc1cccc(Cl)c1 | - | - | - | MIC | 15 µg/mL
O=C(Nc1cccc(Cl)c1)c1ccccc1O | - | ATCC 44859 | - | MIC | 31.25 µM
COc1ccc(N2C(=O)CC(c3c(C)nn(-c4cccc(Cl)c4)c3Cl)C3=C2CCCC3=O)cc1 | - | MTCC 227 | broth dilution | MIC | 1000 µg/mL
CCCCCOc1ccc(-c2ccc(-c3ccc(C(=O)N[C@H]4CCCNC(=O)[C@@H]5C[C@H](N)CN5C(=O)[C@@H]([C@H](C)O)NC(=O)C(CCc5ccc(O)cc5)NC(=O)[C@@H]5C[C@@H](O)CN5C(=O)[C@H]([C@@H](C)O)NC4=O)cc3)cc2)cc1 | - | ATCC 62376 | - | MIC | 12.5 µg/mL
O=C(Nc1ccc(F)cc1)c1ncccc1O | - | ATCC 44859 | - | MIC | 125 µM
Cc1ccc(OC(CCn2ccnc2)c2ccccc2)cc1 | - | - | - | MIC | 10.2 µg/mL
COc1cncc(-c2nc[n+](-c3ccccc3)[nH]2)n1 | - | - | broth dilution | MIC | >256 µg/mL
CCCCCOc1ccc(-c2ccc(-c3ccc(C(=O)N[C@H]4CCCNC(=O)[C@@H]5C[C@H](N)CN5C(=O)[C@H](CCCN=C(N)N)NC(=O)C(CCc5ccc(O)cc5)NC(=O)[C@@H]5C[C@@H](O)CN5C(=O)[C@H]([C@@H](C)O)NC4=O)cc3)cc2)cc1 | - | ATCC 62376 | - | MIC | 0.39 µg/mL
COC1CC2CCC(C)C(O)(O2)C(=O)C(=O)N2CCCCC2C(=O)OC(C(C)CC2CCC(O)C(OC)C2)CC(=O)C(C)/C=C(\C)C(O)C(OC)C(=O)C(C)C[C@](C)(N(O)C(=O)NN2CCCCC2)/C=C/C=C/C=C/1C | - | TOR1-1/TOR1 | - | MIC | >100 µg/mL
CC[N+](C)(CC)CCCC(C)=CCC/C(C)=C/CCC=C(C)CC/C=C(\C)CCC[N+](C)(CC)CC | - | S124 | - | MIC | 25 µg/mL
COC1CC2CCC(C)C(O)(O2)C(=O)C(=O)N2CCCCC2C(=O)OC(C(C)CC2CCC(O)C(OC)C2)CC(=O)C(C)/C=C(\C)C(O)[C@@](OC)(N(O)C(=O)OCC(C)C)C(=O)C(C)CC(C)/C=C/C=C/C=C/1C | - | WILD TYPE | - | MFC | >100 µg/mL
NC(=NNS(=O)(=O)c1ccccc1)c1cncc(Cl)n1 | - | - | broth dilution | MIC | >256 µg/mL
CCN(CC)CCSC(=S)NCc1cc(C)ccc1C | - | - | - | MIC | 100 µg/mL
O=C(Nc1cccc(Cn2ccnc2)c1)c1ccccc1 | - | 27 strains | - | Mean MIC | 175 µg/mL
Clc1ccc(CO/N=C2/c3ccccc3OCC2n2cncn2)c(Cl)c1 | - | ATCC 10231 | - | MFC | 64 µg/mL
O=C(Nc1ccccc1)c1ncccc1O | - | ATCC 44859 | - | MIC | 125 µM
CCCCOC(=O)/C=C/c1ccccc1 | - | - | - | MIC | 0.002 µg/mL
O=C(Nc1ccc(Br)cc1)c1ncccc1O | - | ATCC 44859 | - | MIC | >250 µM
Clc1ccc(CO/N=C2/c3ccc(Cl)cc3OCC2n2cnnc2)c(Cl)c1 | - | ATCC 10231 | - | MIC | 64 µg/mL
O=C(NNC(=S)Nc1ccc(Cl)cc1Cl)C1CCCCC1 | - | CNCM 1180-79 | - | MIC | >300 µg/mL
COc1cc(/C=C2/SC(=O)N(CC(=O)Nc3nc4ccc(SC#N)cc4s3)C2=O)cc(OC)c1OC | - | MTCC 227 | broth dilution / visual reading | MIC | 1000 µg/mL
COc1ccc(C[C@H](N)C(=O)N[C@H]2[C@@H](O)[C@H](n3cnc4c(N)ncnc43)O[C@@H]2C(=O)O)cc1 | - | FP-614 | - | MIC | 0.8 µg/mL
O=C(O)/C=C/c1ccccc1 | - | - | - | MIC | 0.002 µg/mL
C[C@H]1[C@H](O)[C@@H](C)/C=C/C=C/C=C/C=C/C=C/C=C/C=C/[C@H](O[C@@H]2O[C@H](C)[C@@H](O)[C@H](N)[C@@H]2O)C[C@@H]2O[C@](O)(C[C@@H](O)C[C@@H](O)CC[C@H](O)[C@@H](O)C[C@@H](O)CC(=O)O[C@H]1C)C[C@H](O)[C@H]2C(=O)O | - | TIMM1768 (azole-susceptible) | - | MIC80 | 0.13 µg/mL
CCN(CC)CCSC(=S)NCc1ccc(C)cc1 | - | - | - | MIC | 20 µg/mL
O=C(Nc1ccccc1Cn1ccnc1)c1ccc(Cl)cc1 | - | 27 strains | - | Mean MIC | 150 µg/mL
NC(=NNS(=O)(=O)c1ccccc1)c1cnccn1 | - | - | broth dilution | MIC | >256 µg/mL
O=C(Nc1nc2ccc(NC(=O)[C@@H]3CCC[C@H](NCc4ccc5ccccc5c4)C3)cc2s1)C1CCCC1 | - | IFM 46909 (TIMM 3165) | - | MIC | 3.13 µM
Cc1nn(-c2cccc(Cl)c2)c(Cl)c1C1CC(=O)N(c2ccc(F)cc2)C2=C1C(=O)CCC2 | - | MTCC 227 | broth dilution | MIC | 1000 µg/mL
CCCCCCCCCCCC[N+](C)(C)[O-] | - | S9 | - | MIC | 100 µg/mL
COc1cc(O)c2c(c1)C(=O)c1c(cc3c(c1O)-c1c(cc(C)c(C(=O)NC(CO)C(=O)O)c1O)[C@H](OC1OC(C)C(O)C(OC4OCC(O)C(O)C4O)C1O)C3O)C2=O | - | (FLU-R) | - | MIC | 6.25 µg/mL
O=C(Nc1cccc(Cn2ccnc2)c1)c1cc([N+](=O)[O-])cc([N+](=O)[O-])c1 | - | 27 strains | - | Mean MIC | 100 µg/mL
O=C(Nc1ccc(Br)cc1)c1ccccc1O | - | ATCC 44859 | - | MIC | 62.5 µM
O=[N+]([O-])c1cccc(S(=O)(=O)Nc2ccc3c(c2)Sc2ccccc2O3)c1 | - | C316 | - | MIC | 5 µg/mL
CCCCCCN(CCCCCC)c1ccc(/C=C2/SC(=O)NC2=O)cc1 | - | MTCC 227 | broth dilution / visual reading | MIC | 1000 µg/mL
CCCCCCCCOc1ccc(-c2ccc(C(=O)N[C@H]3CCCNC(=O)[C@@H]4C[C@H](N)CN4C(=O)[C@H]([C@@H](C)O)NC(=O)[C@H](CCc4ccc(O)cc4)NC(=O)[C@@H]4C[C@@H](O)CN4C(=O)[C@H]([C@@H](C)O)NC3=O)cc2)cc1 | - | ATCC 38247 | - | MIC | 0.39 µg/mL
N#CSc1ccc2nc(NC(=O)CN3C(=O)S/C(=C/c4ccc(F)cc4)C3=O)sc2c1 | - | MTCC 227 | broth dilution / visual reading | MIC | 500 µg/mL
O=[N+]([O-])c1ccccc1SNc1ccc2c(c1)Sc1ccccc1O2 | - | C316 | - | MIC | 0.9 µg/mL
O=C(O)/C(Br)=C(\Br)c1ccccc1 | - | - | - | MIC | 0.001 µg/mL
CC[N+]([O-])(CC)CCCC(C)=CCC/C(C)=C/CCC=C(C)CC/C=C(\C)CCC=C(C)C | - | S9 | - | MIC | 200 µg/mL
Brc1ccc(CO/N=C2/c3ccccc3OCC2n2cncn2)cc1 | - | ATCC 10231 | - | MIC | 16 µg/mL
OC(Cn1cncn1)(Cn1cncn1)c1ccc(F)cc1F | - | Clinical isolates | - | MIC | 0.904 µg/mL
N#CSc1ccc2nc(NC(=O)CN3C(=O)S/C(=C/c4cccc(Br)c4)C3=O)sc2c1 | - | MTCC 227 | broth dilution / visual reading | MIC | 500 µg/mL
NCCSC(=S)NCc1ccccc1 | - | - | - | MIC | 20 µg/mL
C[C@@H]1[C@H](O)[C@@H](C)/C=C/C=C/C=C/C=C/C=C/C=C/C=C/[C@H](O[C@@H]2O[C@H](C)[C@@H](O)[C@H](N)[C@@H]2O)C[C@@H]2O[C@](O)(C[C@@H](O)C[C@@H](O)[C@H](O)CC[C@@H](O)C[C@@H](O)CC(=O)O[C@H]1C)C[C@H](O)[C@H]2C(=O)O | - | ATCC 10231 | broth dilution | MFC | 0.193 µg/mL
COc1ccc(CNC(=S)SCCN(C)C)cc1 | - | - | - | MIC | 100 µg/mL
O=C(Nc1cccc(Cn2ccnc2)c1)c1cccc([N+](=O)[O-])c1 | - | 27 strains | - | Mean MIC | 200 µg/mL
COc1cncc(-c2nc(C)[n+](C)[nH]2)n1 | - | - | broth dilution | MIC | >256 µg/mL
C[C@@H](c1ncncc1F)[C@](O)(Cn1cncn1)c1ccc(F)cc1F | 24 h | Isolate M27-T-micro | - | MIC90 | 0.19 µg/mL
Nn1c(-c2cnccn2)n[nH]c1=S | - | CNCM 1180-79 | - | MIC | >300 µg/mL
COc1cc(O)c2c(c1)C(=O)c1c(cc3c(c1O)-c1c(cc(C)c(C(=O)NC(C)C(=O)O)c1O)[C@H](OC1OC(C)C(N(C)C)C(OC4OCC(O)C(O)C4O)C1O)[C@H]3O)C2=O | - | ATCC 32354 (B311) | - | MIC | 6.3 µg/mL
Clc1ccc(CO/N=C2/c3ccc(Cl)cc3OCC2n2cncn2)c(Cl)c1 | - | ATCC 10231 | - | MIC | 4 µg/mL
COc1ccc(N2C(=O)CC(c3c(C)nn(-c4cccc(Cl)c4)c3Cl)C3=C2CC(C)(C)CC3=O)cc1 | - | MTCC 227 | broth dilution | MIC | 500 µg/mL
O=C(Nc1ccccc1Cn1ccnc1)c1ccc(Cl)cc1[N+](=O)[O-] | - | 27 strains | - | Mean MIC | 125 µg/mL
N#CSc1ccc2nc(NC(=O)CN3C(=O)S/C(=C/c4ccc(O)cc4)C3=O)sc2c1 | - | MTCC 227 | broth dilution / visual reading | MIC | 1000 µg/mL
C[C@@H](SC1COC(/C=C/C=C/c2ccc(C#N)cc2F)OC1)[C@](O)(Cn1cncn1)c1ccc(F)cc1F | - | CAL-0012 | - | MIC | 0.06 µg/mL
CC(C)=CCC/C(C)=C/CCC(C)=CCC/C=C(\C)CCC=C(C)CCC[N+](C)(C)C | - | S9 | - | MIC | 6.25 µg/mL
Cc1ccc(S(=O)(=O)NC(=O)Nc2ccc(S(=O)(=O)Nc3ccc4c(c3)Sc3ccccc3O4)cc2)cc1 | - | C316 | - | MIC | 0.8 µg/mL
S=c1[nH]nc(C23CC4CC(CC(C4)C2)C3)n1-c1ccc(Cl)cc1Cl | - | CNCM 1180-79 | - | MIC | >300 µg/mL
CC(C)CCCC(C)CCCC(C)CCCCC(C)CCCC(C)CCC[N+](C)(C)[O-] | - | S124 | - | MIC | >200 µg/mL
C[C@H]1[C@H](O)[C@@H](C)/C=C/C=C/C=C/C=C/C=C/C=C/C=C/[C@H](O[C@@H]2O[C@H](C)[C@@H](O)[C@H](N)[C@@H]2O)C[C@@H]2O[C@](O)(C[C@@H](O)C[C@@H](O)CC[C@H](O)[C@@H](O)C[C@@H](O)CC(=O)O[C@H]1C)C[C@H](O)[C@H]2C(=O)O | - | MY1055 | - | MIC | 0.5 µg/mL
O=C(Nc1ccccc1Cn1ccnc1)c1ccc(F)cc1 | - | 27 strains | - | Mean MIC | 112.5 µg/mL
CCCCCOc1ccc(-c2ccc(-c3ccc(C(=O)N[C@H]4CCCNC(=O)[C@@H]5[C@H](N)CCN5C(=O)[C@H]([C@@H](C)O)NC(=O)[C@H](CCc5ccc(O)cc5)NC(=O)[C@@H]5C[C@@H](O)CN5C(=O)[C@H]([C@@H](C)O)NC4=O)cc3)cc2)cc1 | - | ATCC 38247 | - | MIC | 0.39 µg/mL
O=C(Nc1ccc([N+](=O)[O-])cc1)c1ccccc1O | - | ATCC 44859 | - | MIC | 62.5 µM
Cc1ccc(CNC(=S)SCCN(C)C)cc1 | - | - | - | MIC | 10 µg/mL
Cc1c(O)cccc1C(=O)N[C@@H](CSc1ccccc1)[C@H](O)CN1C[C@H]2CCCC[C@H]2C[C@H]1C(=O)NC(C)(C)C | - | I168RA | - | MIC | >64 µg/mL
CC[N+]([O-])(CC)CCCC(C)CCCC(C)CCCCC(C)CCCC(C)CCC[N+]([O-])(CC)CC | - | S9 | - | MIC | >200 µg/mL
COc1ccc(N2C(=O)CC(c3c(C)nn(-c4ccc(C)cc4)c3Cl)C3=C2CCCC3=O)cc1 | - | MTCC 227 | broth dilution | MIC | 500 µg/mL
CCCCCCCCOC(=O)/C=C/c1ccccc1 | - | - | - | MIC | 0.002 µg/mL
O=S(=O)(Nc1ccc2c(c1)Sc1ccccc1O2)c1ccc(F)cc1 | - | C316 | - | MIC | 8 µg/mL
CN(C)CCSC(=S)NCc1ccc(F)cc1 | - | - | - | MIC | 10 µg/mL
O=S(=O)(Cc1ccccc1)Nc1ccc2c(c1)Sc1ccccc1O2 | - | C316 | - | MIC | 17 µg/mL
CC(=O)Nc1ccc(C=Nc2cccc(Cn3ccnc3)c2)cc1 | - | 27 strains | - | Mean MIC | 165 µg/mL
CCCCCOc1ccc(-c2ccc(-c3ccc(C(=O)N[C@H]4CCCNC(=O)[C@@H]5[C@@H](O)CCN5C(=O)[C@H]([C@@H](C)O)NC(=O)[C@H](CCc5ccc(O)cc5)NC(=O)[C@@H]5C[C@@H](O)CN5C(=O)[C@H]([C@@H](C)O)NC4=O)cc3)cc2)cc1 | - | ATCC 38247 | - | MIC | 0.78 µg/mL
O=C(/C=C/c1ccccc1)N1CCCCC1 | - | - | - | MIC | 0.002 µg/mL

Repeating the first 6 entries:

structure,setting,strain,method,endpoint,result
CN(C)CCSC(=S)NCc1cccc(Cl)c1,-,-,-,MIC,15 µg/mL
O=C(Nc1cccc(Cl)c1)c1ccccc1O,-,ATCC 44859,-,MIC,31.25 µM
COc1ccc(N2C(=O)CC(c3c(C)nn(-c4cccc(Cl)c4)c3Cl)C3=C2CCCC3=O)cc1,-,MTCC 227,broth dilution,MIC,1000 µg/mL
CCCCCOc1ccc(-c2ccc(-c3ccc(C(=O)N[C@H]4CCCNC(=O)[C@@H]5C[C@H](N)CN5C(=O)[C@@H]([C@H](C)O)NC(=O)C(CCc5ccc(O)cc5)NC(=O)[C@@H]5C[C@@H](O)CN5C(=O)[C@H]([C@@H](C)O)NC4=O)cc3)cc2)cc1,-,ATCC 62376,-,MIC,12.5 µg/mL
O=C(Nc1ccc(F)cc1)c1ncccc1O,-,ATCC 44859,-,MIC,125 µM
Cc1ccc(OC(CCn2ccnc2)c2ccccc2)cc1,-,-,-,MIC,10.2 µg/mL